Test results reported in article PMC12604490, “Dual immunomodulatory and antileishmanial potential of TLR7/8 agonists against Leishmania donovani” (Infection and Immunity, 2025).

What was measured:
RAW 264.7 macrophages = assay: Cytotoxicity on RAW 264.7 macrophages (MTT, 48 h); format: cell-based; settings: for RAW macrophage SI (antiamastigote): CC50 RAW 264.7 / IC50 amastigotes; for RAW macrophage SI (antipromastigote): CC50 RAW 264.7 / IC50 promastigotes
Method: To evaluate the cytotoxicity and antiamastigote assay, RAW 264.7 macrophages were cultured in Dulbecco’s modified Eagle medium (HiMedia, India), 10% heat-inactivated fetal bovine serum (FBS, Biowest) and cultured at 37°C (5% CO2). The macrophage cell growth was evaluated daily, and the cells were subcultured into a new flask containing fresh cell culture medium once they reached about 80%–90% confluency.
(§1) The cytotoxicity studies were performed using an immune cell line (RAW 264.7 macrophage) and non-immune epithelial cell line (HeLa) by 3-(4,5-dimethylthiazol-2-yl)-2,5-diphenyltetrazolium bromide (MTT) assay. A total of 7,000–10,000 cells/well were supplemented with different concentrations (2–64 μg/mL) of TLR7/8 agonists and incubated for 48 hours. MTT (1 mg/mL) (Hi-Media) was added to each well and kept for 4 hours. The formazan crystals formed were dissolved in 100 µL of dimethyl ulfoxide (DMSO), and absorbance at 550 nm was recorded using a microreader. AmB, MF, and Resiquimod were used as reference drugs. The percentage of cytotoxicity was calculated as [(absorbance of treated well − absorbance of blank) / (absorbance of untreated well − absorbance of blank)] × 100. The CC50 value was calculated with SPSS software. The SI of TLR7/8 agonists was obtained by calculating the ratio of CC50 (RAW 264.7 macrophage and HeLa cells) and IC50 (antipromastigote and antiamastigotes) ([21], [23]).

HeLa cells = assay: Cytotoxicity on HeLa cells (MTT, 48 h); format: cell-based, human; settings: for HeLa cell SI (antiamastigote): CC50 HeLa / IC50 amastigotes; for HeLa cell SI (antipromastigote): CC50 HeLa / IC50 promastigotes
Method: HeLa cells (human cervical epithelial cell line) were grown in RPMI-1640 (HiMedia) with 10% FBS and cultured at 37°C (5% CO2). The cells were evaluated daily using an inverted microscope for any contamination and subcultured after reaching confluency ([21]).
as §1

| Compound | RAW macrophage SI (antiamastigote) (RAW 264.7 macrophages) | RAW macrophage SI (antipromastigote) (RAW 264.7 macrophages) | HeLa cell SI (antiamastigote) (HeLa cells) | HeLa cell SI (antipromastigote) (HeLa cells) |
| --- | --- | --- | --- | --- |
| C[C@@H]1[C@H](O)[C@@H](C)/C=C/C=C/C=C/C=C/C=C/C=C/C=C/[C@H](O[C@@H]2O[C@H](C)[C@@H](O)[C@H](N)[C@@H]2O)C[C@@H]2O[C@](O)(C[C@@H](O)C[C@@H](O)[C@H](O)CC[C@@H](O)C[C@@H](O)CC(=O)O[C@H]1C)C[C@H](O)[C@H]2C(=O)O [Amphotericin B, amphotericin B, reference compound] | 95.75 | 147.3 | 80.5 | – |
| CCCCc1nc2c(N)nc3ccccc3c2n1Cc1ccc(CO)cc1 [compound 4] | 0.91 | 1.03 | 0.64 | 0.73 |
| CCCCCCCCCCCCCCCCOP(=O)([O-])OCC[N+](C)(C)C [Miltefosine, miltefosine, reference compound] | 7.58 | 10.69 | 5.86 | 8.27 |
